{"source": "PubChem BioAssay AID504761 (Drosophila RNAi Screening Center, 2011)", "purpose": "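Fly genes whose silencing reduces dengue virus type 2 infection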 (primary screen)", "cells": "D.Mel-2 cells from Drosophila", "knock-down reagent": "long dsRNA against Drosophila genes", "challenge": "infection with dengue virus type 2; dose and infection time not stated", "measured": "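Per well on two replicate plates, imaging gave the percent of cells positive for viral envelope protein, ranked by infection, and a nuclear count of cells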", "scale": "infection score: higher = more virus-infected cells; cell count: higher = more cells in the well", "rule for the call": "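Very low infection ranking in both replicate wells (chance probability at most 0.065), then a retest showing infection dropped 1.5-fold or more at p below 0.05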", "calls": "active = confirmed: knock-down lowers infection; inactive = not picked or not confirmed", "note": "The deposit covers about 22,000 reagents; shown is an unselected part of those with a known target gene and a result. In the full data, 116 (0.52%) were called active. 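Calls depend on retest data that are not deposited; infection was ranked per plate without normalising between plates; the unit of the infection score is not given.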 Raw values vary from plate to plate and are shown uncorrected. Not all columns of the deposit are shown. Reagent sequences are not shown. Not stated in the record: the amount of reagent, the time to read-out."}
{"gene knocked down":"CG15141","DRSC id":"DRSC02441","infection score, replicate 1":9.06,"cell count, replicate 1":6482,"outcome":"inactive"}
{"gene knocked down":"CG15141","DRSC id":"DRSC02442","infection score, replicate 1":4.57,"cell count, replicate 1":6607,"outcome":"inactive"}
{"gene knocked down":"CG15141","DRSC id":"DRSC29031","cell count, replicate 1":138,"outcome":"inactive"}
{"gene knocked down":"fru","DRSC id":"DRSC16953","infection score, replicate 1":7.33,"cell count, replicate 1":6688,"outcome":"inactive"}
{"gene knocked down":"fru","DRSC id":"DRSC24960","infection score, replicate 1":3.24,"cell count, replicate 1":5842,"outcome":"inactive"}
{"gene knocked down":"Irk2","DRSC id":"DRSC15569","infection score, replicate 1":15.3,"cell count, replicate 1":6802,"outcome":"inactive"}
{"gene knocked down":"CG17187","DRSC id":"DRSC15181","infection score, replicate 1":17.1,"cell count, replicate 1":4507,"outcome":"inactive"}
{"gene knocked down":"CG17187","DRSC id":"DRSC29903","infection score, replicate 1":15.1,"cell count, replicate 1":6182,"outcome":"inactive"}
{"gene knocked down":"CG14280","DRSC id":"DRSC14761","infection score, replicate 1":2.71,"cell count, replicate 1":6558,"outcome":"inactive"}
{"gene knocked down":"CG31752","DRSC id":"DRSC22599","infection score, replicate 1":8.66,"cell count, replicate 1":6048,"outcome":"inactive"}
{"gene knocked down":"CG12310","DRSC id":"DRSC09878","infection score, replicate 1":4.07,"cell count, replicate 1":6038,"outcome":"inactive"}
{"gene knocked down":"CG12310","DRSC id":"DRSC25358","infection score, replicate 1":11.9,"cell count, replicate 1":5714,"outcome":"inactive"}
{"gene knocked down":"spi","DRSC id":"DRSC03618","infection score, replicate 1":0.39,"cell count, replicate 1":772,"outcome":"inactive"}
{"gene knocked down":"spi","DRSC id":"DRSC29414","cell count, replicate 1":342,"outcome":"inactive"}
{"gene knocked down":"Dop2R","DRSC id":"DRSC20683","infection score, replicate 1":1.41,"cell count, replicate 1":5597,"outcome":"inactive"}
{"gene knocked down":"Dop2R","DRSC id":"DRSC29286","infection score, replicate 1":28.3,"cell count, replicate 1":5084,"outcome":"inactive"}
{"gene knocked down":"sif","DRSC id":"DRSC08759","infection score, replicate 1":0.84,"cell count, replicate 1":5596,"outcome":"inactive"}
{"gene knocked down":"sif","DRSC id":"DRSC11395","infection score, replicate 1":0.3,"cell count, replicate 1":6261,"outcome":"inactive"}
{"gene knocked down":"sif","DRSC id":"DRSC22065","infection score, replicate 1":7.53,"cell count, replicate 1":6344,"outcome":"inactive"}
{"gene knocked down":"sif","DRSC id":"DRSC22828","infection score, replicate 1":0.32,"cell count, replicate 1":6796,"outcome":"inactive"}
{"gene knocked down":"sif","DRSC id":"DRSC26730","infection score, replicate 1":14.4,"cell count, replicate 1":6444,"outcome":"inactive"}
{"gene knocked down":"Etfb","DRSC id":"DRSC16324","infection score, replicate 1":1.23,"cell count, replicate 1":6339,"outcome":"inactive"}
{"gene knocked down":"CG42249","DRSC id":"DRSC19383","infection score, replicate 1":1.11,"cell count, replicate 1":6238,"outcome":"inactive"}
{"gene knocked down":"CG42249","DRSC id":"DRSC19826","infection score, replicate 1":4.17,"cell count, replicate 1":6614,"outcome":"inactive"}
{"gene knocked down":"CG42249","DRSC id":"DRSC28504","infection score, replicate 1":14.4,"cell count, replicate 1":5790,"outcome":"inactive"}
{"gene knocked down":"loopin-1","DRSC id":"DRSC06888","infection score, replicate 1":10.9,"cell count, replicate 1":6396,"outcome":"inactive"}
{"gene knocked down":"loopin-1","DRSC id":"DRSC24892","infection score, replicate 1":4.72,"cell count, replicate 1":5890,"outcome":"inactive"}
